Anti-infective test results gathered from many reports (values: NIAID ChemDB through PubChem).

Shared fields: enzyme or target tests

ICn: concentration for n% inhibition. Fold resistance: result on the changed form divided by that on wild type. Percent inhibition refers to the dose given; in toxicity tests it is the harm to the cells. a–b is a range or a potency band. Blank or dashed fields: not listed here. Lines come from different laboratories, so protocols vary.

smiles	strain	measure	method	dose	mutations	protein	species	result
COc1ccc(S(=O)(=O)O)cc1N=Nc1c(S(=O)(=O)O)cc2cc(Nc3nc(Nc4ccccc4)nc(Nc4cc(C)c(N=Nc5cc(S(=O)(=O)O)cc6cc(S(=O)(=O)O)cc(O)c56)cc4OC)n3)ccc2c1O		inhibition	ELISA	2.5 µg/mL		gp41	HIV-1	90%
CC[C@H](C)[C@H](N)C(=O)N[C@@H](CC(N)=O)C(=O)N[C@@H](CC(N)=O)C(=O)N[C@H](C(=O)N1CCC[C@H]1C(=O)N[C@@H](Cc1c[nH]c2ccccc12)C(=O)N[C@@H](CO)C(=O)O)[C@@H](C)CC	SF2	IC50	ELISA			gp120	HIV-1	12 µM
CC(C)(O)[C@H]1CC[C@@](C)(O[C@H]2O[C@@H](CO)[C@H](O)[C@@H](O)[C@@H]2O)[C@H](O)C1		IC50	FRET			RNase H	HIV-2	>20 µM
O=C(O)CCN1C(=O)/C(=C\c2ccc(-c3ccccc3[N+](=O)[O-])o2)SC1=S		IC50	scintillation proximity / radiometric			Rev:RRE	HIV-1	40 µM
COC(=O)c1ccc(C(=O)NCc2ccccn2)c(O)c1O		IC50	strand transfer			Integrase	HIV	<0.5 µM
CCN1c2ncc(CCOc3ccc(CC(=O)O)c4ccccc34)cc2C(=O)Nc2c(C)cc(Cl)nc21		fold resistance	nucleotide incorporation / radiometric		RT-K103N Y181C	Reverse transcriptase	HIV-1	1–10
CC(C)(C)NC(=O)[C@@H]1C[C@@H]2CCCC[C@@H]2CN1C[C@@H](O)CN(CCc1ccc2c(c1)OCO2)S(=O)(=O)c1cccc(N)c1		IC50				Protease	HIV	89.43 µM
NS(=O)(=O)c1ccc(-c2ccc(/C=C3/SC(=S)N(CCC(=O)O)C3=O)o2)cc1		IC50	scintillation proximity / radiometric			Rev:RRE	HIV-1	90 µM
CN(C)c1ccc(Nc2nc(-c3ccc(Cl)cc3Cl)nc3ccccc23)cc1		IC50	AlphaScreen			Capsid	HIV-1	28.6 µM
OC[C@H]1O[C@@H](OCCc2ccc(O)cc2)[C@H](O)[C@@H](O)[C@@H]1O		IC50	FRET			RNase H	HIV-2	>20 µM
CC(=O)Nc1ccccc1C(=O)Nc1ccc(-c2nc3ccc(NC(=O)c4ccccc4NC(C)=O)cc3[nH]2)cc1		IC50	scintillation proximity / radiometric			Rev:RRE	HIV-1	>90 µM
Nc1ncnc2c1ncn2[C@H]1CC[C@@H](COP(=O)(O)OP(=O)(O)OP(=O)(O)O)O1		IC50	nucleotide incorporation / radiometric		RT-V77I F116Y Q151M	Reverse transcriptase	HIV	37 µM
CC(C)(C)NC(=O)[C@@H]1C[C@@H]2CCCC[C@@H]2CN1C[C@@H](O)CN(CCc1cccc(N)c1)S(=O)(=O)c1ccc(N)cc1		IC50				Protease	HIV	7.2 µM
CCN1c2ncc(CCOc3ccc(CC(C)C(=O)O)c4ccccc34)cc2C(=O)N(C)c2ccc(C)nc21		fold resistance	nucleotide incorporation / radiometric		RT-K103N Y181C	Reverse transcriptase	HIV-1	1–10
N[C@H]1[C@@H](O[C@H]2[C@H](O)[C@@H](O)[C@H](N)C[C@@H]2N)O[C@H](CNC(=O)c2ccc3ccc4cccc5ccc2c3c45)[C@@H](O)[C@@H]1O		IC50	fluorescence			Rev:RRE	HIV-1	19 µM
CC(C)CN(C[C@H](O)CN1C[C@H]2CCCC[C@H]2C[C@H]1C(=O)NC(C)(C)C)S(=O)(=O)c1cccc([N+](=O)[O-])c1		IC50				Protease	HIV	>200 µM
O=C(C1=NS(=O)(=O)c2ccc(Cl)cc2S1)c1ccc2ccccc2c1		fold resistance	strand transfer		INTG-C65S	Integrase	HIV-1	4.37
CCCN(C[C@H](O)CN1C[C@H]2CCCC[C@H]2C[C@H]1C(=O)NC(C)(C)C)S(=O)(=O)c1ccc([N+](=O)[O-])cc1		IC50				Protease	HIV	35.75 µM
Cc1ccc(Cn2cccc2/C=C/C(=O)CC(=O)C(=O)O)c(C)c1		IC50	substrate cleavage / fluorescence		N474A	RNase H	HIV-1	>100 µM
CCN1c2ncc(CCOc3ccc(CC(=O)O)c4ccccc34)cc2C(=O)Nc2c(C)ccnc21		fold resistance	nucleotide incorporation / radiometric		RT-Y188L	Reverse transcriptase	HIV-1	>10
CCN1c2ncc(CCOc3ccc(-c4ccc(CC(=O)O)cc4F)cc3C)cc2C(=O)N(C)c2cccnc21	IIIB	fold resistance	nucleotide incorporation / radiometric		RT-K103N Y181C	Reverse transcriptase	HIV-1	1
Cc1cc2c(cc1Cl)SC(C(=O)c1ccccc1)=NS2(=O)=O		fold resistance	3′ processing		INTG-C65S	Integrase	HIV-1	7.5
O=C(/C=C/c1ccc(/C=C/C(=O)Nc2ccc(C3=NCCN3)cc2)cc1)Nc1ccc(C2=NCCN2)cc1		IC50	scintillation proximity / radiometric			Rev:RRE	HIV-1	1.2 µM
C[C@H](O)CC[C@@]1(O)[C@@H](C)C[C@H](O[C@H]2O[C@@H](CO)[C@H](O)[C@@H](O)[C@@H]2O)CC1(C)C		IC50	FRET			RNase H	HIV-2	>20 µM
CCCN(C[C@H](O)CN1C[C@H]2CCCC[C@H]2C[C@H]1C(=O)NC(C)(C)C)S(=O)(=O)c1ccc(N)cc1		IC50				Protease	HIV	0.47 µM
Cc1cc2c(cc1Cl)SC(C(=O)c1cccc([N+](=O)[O-])c1)=NS2(=O)=O		fold resistance	strand transfer		INTG-C65S	Integrase	HIV-1	1.6
CC(C)(C)NC(=O)[C@@H]1C[C@@H]2CCCC[C@@H]2CN1C[C@@H](O)CN(CCc1cccc(N)c1)S(=O)(=O)c1cccc(N)c1		IC50				Protease	HIV	10.39 µM
CC(=O)c1ccc(O)c2nc(/C=C/c3cc(O)c(O)c(O)c3)ccc12	HXB2	IC50	3′ processing / gel			Integrase	HIV	0.51 µM
COC(=O)c1ccc(C(=O)NCc2ccc([N+](=O)[O-])cc2)c(O)c1O		IC50	strand transfer			Integrase	HIV	<0.5 µM
O=C(C1=NS(=O)(=O)c2ccc(Cl)cc2S1)c1ccc(Cl)cc1		fold resistance	3′ processing		INTG-C65S	Integrase	HIV-1	1
O=C(O)CCN1C(=O)/C(=C\c2ccc(-c3ccccc3)o2)SC1=S		IC50	scintillation proximity / radiometric			Rev:RRE	HIV-1	40 µM
Cc1cc2c(cc1Cl)SC(C(=O)c1ccc(Br)cc1)=NS2(=O)=O		fold resistance	strand transfer		INTG-C65S	Integrase	HIV-1	2.17
COc1cc(/C=C/c2ccc3c(C(C)=O)ccc(O)c3n2)cc([N+](=O)[O-])c1O	HXB2	IC50	3′ processing / gel			Integrase	HIV	0.724 µM
COc1cc(/C=C/CO)cc(OC)c1O[C@@H]1O[C@H](CO)[C@@H](O)[C@H](O)[C@H]1O		IC50	FRET			RNase H	HIV-2	>20 µM
CSCC[C@H](NC(=O)[C@@H]1CCCN1C(=O)[C@H](Cc1cnc[nH]1)NC(=O)[C@H](Cc1c[nH]c2ccccc12)NC(=O)[C@@H](N)Cc1ccccc1)C(=O)N[C@@H](Cc1cnc[nH]1)C(=O)N[C@@H](CC(=O)O)C(=O)O	ADA	IC50	ELISA			gp120	HIV-1	>500 µM
COC(=O)c1ccc(C(=O)NCc2cccnc2)c(O)c1O		IC50	strand transfer			Integrase	HIV	<0.5 µM
CCOC(=O)C(=O)CC(=O)/C=C/c1cc(-c2ccccc2)cn1Cc1ccc(F)cc1		inhibition	substrate cleavage / fluorescence	100 µM	N474A	RNase H	HIV-1	0%
Nc1ncnc2c1ncn2[C@H]1CC[C@@H](COP(=O)(O)OP(=O)(O)OP(=O)(O)O)O1		fold resistance			RT-L74V	Reverse transcriptase	HIV	4.5
N#CC1C=Cc2ccccc2N1C(=O)c1ccc(Cl)cc1		inhibition	nucleotide incorporation	100 µM		Reverse transcriptase	HIV-2	0%
Cc1ccc(-c2nnc3ccc4c(C(F)(F)F)cc(C(F)(F)F)nc4n23)cc1		IC50	fluorescence			gp41	HIV-1	10 µM
Nc1ccn([C@H]2CC[C@@H](COP(=O)(O)OP(=O)(O)OP(=O)(O)O)O2)c(=O)n1		Ki			RT-L74V T215Y	Reverse transcriptase	HIV	75 µM
CC(=O)Nc1ccc(-c2nc3ccc(NC(C)=O)cc3[nH]2)cc1		IC50	scintillation proximity / radiometric			Rev:RRE	HIV-1	>90 µM
O=C(Nc1ccc(Br)cc1C(=O)O)c1cncc(C(=O)Nc2ccc(Br)cc2C(=O)O)c1		IC50				Reverse transcriptase	HIV-2	>100 µg/mL
c1cncc(-c2nc(Nc3ccc4n[nH]nc4c3)c3ccccc3n2)c1		IC50	AlphaScreen			Capsid	HIV-1	1.9 µM
COc1cc(CN=NC(=O)c2cc3ccccc3s2)cc([N+](=O)[O-])c1O		IC50	fluorescence			gp41	HIV-1	~5 µM
Nc1nc2c(ncn2[C@H]2CO[C@@H](COP(=O)(O)OP(=O)(O)OP(=O)(O)O)O2)c(=O)[nH]1		fold resistance	radiometric		RT-D67N K70R T215Y K219Q	Reverse transcriptase	HIV	1.2
Nc1ccn([C@H]2CC[C@@H](COP(=O)(O)OP(=O)(O)OP(=O)(O)O)O2)c(=O)n1		IC50	nucleotide incorporation / radiometric			Reverse transcriptase	HIV	5 µM
c1ccc2c(NCCCn3ccnc3)nc(-c3ccncc3)nc2c1		IC50	AlphaScreen			Capsid	HIV-1	>200 µM
CN(CC(=O)Nc1ccc(Br)cc1C(=O)O)CC(=O)Nc1ccc(Br)cc1C(=O)O		IC50				Reverse transcriptase	HIV-2	>100 µg/mL
CCN1c2ncc(CCOc3ccc(C(=O)N4CCC(C(=O)O)CC4)cc3C)cc2C(=O)N(C)c2cccnc21	IIIB	fold resistance	nucleotide incorporation / radiometric		RT-K103N Y181C	Reverse transcriptase	HIV-1	>1
FC(F)(F)c1cc(C(F)(F)F)c2ccc3nnc(-c4ccccc4)n3c2n1		IC50	fluorescence			gp41	HIV-1	10 µM
CCN1c2ncc(CCOc3ccc(C(=O)N(C)Cc4ccc(C(=O)O)cc4)cc3C)cc2C(=O)N(C)c2cccnc21	IIIB	fold resistance	nucleotide incorporation / radiometric		RT-K103N Y181C	Reverse transcriptase	HIV-1	>1
O=C(CCCCC(=O)Nc1ccccc1C(=O)O)Nc1ccc(Br)cc1		IC50				Reverse transcriptase	HIV-2	>100 µg/mL
CCN1c2ncc(CCOc3ccc(NC(C)=O)cc3C)cc2C(=O)N(C)c2cccnc21	IIIB	fold resistance	nucleotide incorporation / radiometric		RT-K103N Y181C	Reverse transcriptase	HIV-1	>1
O=C(O)c1ccccc1/C=C/c1cc(F)cc(/C=C/C2C=CC=CC2)c1		IC50	scintillation proximity / radiometric			Rev:RRE	HIV-1	5.2 µM

For reference, 4 entries again:

smiles | strain | measure | method | dose | mutations | protein | species | result
O=C(O)CCN1C(=O)/C(=C\c2ccc(-c3ccccc3[N+](=O)[O-])o2)SC1=S |  | IC50 | scintillation proximity / radiometric |  |  | Rev:RRE | HIV-1 | 40 µM
CCN1c2ncc(CCOc3ccc(NC(C)=O)cc3C)cc2C(=O)N(C)c2cccnc21 | IIIB | fold resistance | nucleotide incorporation / radiometric |  | RT-K103N Y181C | Reverse transcriptase | HIV-1 | >1
OC[C@H]1O[C@@H](OCCc2ccc(O)cc2)[C@H](O)[C@@H](O)[C@@H]1O |  | IC50 | FRET |  |  | RNase H | HIV-2 | >20 µM
CC(C)(C)NC(=O)[C@@H]1C[C@@H]2CCCC[C@@H]2CN1C[C@@H](O)CN(CCc1ccc2c(c1)OCO2)S(=O)(=O)c1cccc(N)c1 |  | IC50 |  |  |  | Protease | HIV | 89.43 µM